A mixed list of measured activities; the numbers were collected in NIAID ChemDB.

Shared fields: growth or infection tests; species: Cryptococcus neoformans

ECn is the concentration giving n% inhibition of infection, replication or growth.

structure	endpoint	method	strain or isolate	value
Clc1ccc(CN(Cc2ccc(-c3ccccc3)cc2)n2ccnc2)c(Cl)c1	MIC			2.5 µM
c1ccc2c(c1)cc1[nH]c3ccccc3c1[n+]2CCCCCC1CCCCC1	EC50		ATCC 90113	0.3 µg/mL
COc1c(O)ccc2c(=O)c3cccc(O)c3oc12	MIC			>25 µg/mL
CC(N1CCN(c2ccc(-n3cncn3)cc2)C1=O)C(O)(Cn1cncn1)c1ccc(F)cc1F	MIC		TIMM1740	0.06 µg/mL
CC1CC(=O)N(c2ccc(F)cc2F)C1=O	MIC	broth dilution / turbidity	ATCC 32264	125 µg/mL
CCCCCCCCCCCCC(C)(O)C1CC(=O)NC(CO)C(=O)N[C@H](C)C(=O)NC(CC(=O)O)C(=O)NC(CC(N)=O)C(=O)NC(CC(N)=O)C(=O)NC(CO)C(=O)NC([C@@H](C)O)C(=O)O1	MIC		ATCC90112	32 µg/mL
C[C@@H]1CC(=O)N(Cc2ccccc2)C1=O	MIC	broth dilution / turbidity	ATCC 32264	15.6 µg/mL
C[C@H](n1nnnc1CCN1CCN(c2ccc(F)cc2)CC1)[C@](O)(Cn1cncn1)c1ccc(F)cc1F	MIC		LA314	2 µg/mL
O=C(/C=C/c1ccc(Br)cc1)OC1CCN(CC(O)(Cn2cncn2)c2ccc(F)cc2F)CC1	MIC80	broth dilution	BLS108	0.458 µM
COc1ccc(CN(Cc2ccc(-c3ccccc3)cc2)n2ccnc2)cc1	MFC			>200 µM
CCCCC/C=C\C/C=C/CC/C=C/[C@H]1C[C@H]([C@](O)(CC(=O)O[C@@H](C(=O)O)[C@H](CC(=O)O)C(=O)O)C(=O)O)C(=O)O1	MIC			55 µM
COc1ccccc1N1CCN(CCc2nnnn2CC(O)(Cn2cncn2)c2ccc(F)cc2F)CC1	MIC		LA314	>16 µg/mL
CC1C(=O)N(CCc2ccccc2)C(=O)C1C	MIC	broth dilution / turbidity	ATCC 32264	125 µg/mL
Cc1ccccc1CN(Cc1ccc(-c2ccccc2)cc1)n1ccnc1	MIC			5.5 µM
CC1C(=O)N(CCCCc2ccccc2)C(=O)C1C	MIC	broth dilution / turbidity	ATCC 32264	125 µg/mL
CCC(=O)OC1CCN(CC(O)(Cn2cncn2)c2ccc(F)cc2F)CC1	MIC80	broth dilution	BLS108	0.634 µM
CC[C@@]1(O)C[C@H](O[C@H]2C[C@H](N(C)C)[C@H](O[C@H]3C[C@H](O)[C@H](O[C@H]4CCC(=O)[C@H](C)O4)[C@H](C)O3)[C@H](C)O2)c2c(cc3c(c2O)C(=O)c2c(O)cccc2C3=O)[C@H]1C(=O)OC	MIC		Serotype D	0.8 µg/mL
C[C@@H]1CC(=O)N(c2ccccc2)C1=O	MIC	broth dilution / turbidity	ATCC 32264	62.5 µg/mL
COc1c(O)ccc2c(=O)c3c(O)cc(O)cc3oc12	MIC			>25 µg/mL
CN1c2c([nH]c3ccccc23)C=C2C=CC=CC21	EC50		ATCC 90113	15.6 µg/mL
O=c1c2ccc(O)cc2oc2cccc(O)c12	MIC			>25 µg/mL
COc1ccc2[nH+]c3c4ccccc4n(CCCCCC4CCCCC4)c3cc2c1	EC50		ATCC 90113	>50 µg/mL
CC(N1CCN(c2ccc(-n3ccnn3)cc2)C1=O)C(O)(Cn1cncn1)c1ccc(F)cc1F	MIC		TIMM1740	0.13 µg/mL
OC(Cn1cncn1)(Cn1nnnc1CCN1CCN(c2cccc(C(F)(F)F)c2)CC1)c1ccc(F)cc1F	MIC		LA314	>16 µg/mL
CCC(C)n1ncn(-c2ccc(N3CCN(c4ccc(OC[C@H]5CO[C@](Cn6cncn6)(c6ccc(Cl)cc6Cl)O5)cc4)CC3)cc2)c1=O	MIC		Isolate 95-103	0.25 µg/mL
CC(N1CCN(c2ccc(-n3cnnn3)cc2)C1=O)C(O)(Cn1cncn1)c1ccc(F)cc1F	MIC		TIMM1855	0.06 µg/mL
CC1CC(=O)N(CCc2ccccc2)C1=O	MIC	broth dilution / turbidity	ATCC 32264	125 µg/mL
CC(C)C(=O)OC1CCN(CC(O)(Cn2cncn2)c2ccc(F)cc2F)CC1	MIC80	broth dilution	BLS108	0.612 µM
C[n+]1c2ccccc2cc2c1c1ccccc1n2CCCCCc1ccccc1	EC50		ATCC 90113	15 µg/mL
C=C1CC[C@@H]2C(C)(C)CCC[C@@]2(C)[C@@H]1CC/C(C)=C/Cn1c[n+](C)c2ncnc(NO)c21	EC50	resazurin	ATCC 90113	5.94 µg/mL
C[C@@H](n1ncn(-c2ccc(OCC(F)(F)C(F)F)cc2)c1=O)[C@](O)(Cn1cncn1)c1ccc(F)cc1F	MIC		DUMC 109.97	0.125 µg/mL
Cc1nn(-c2ccccc2)c2nsc(N)c12	MFC			8–16 µg/mL
CN[C@H]1CC[C@@H](c2ccc(Cl)c(Cl)c2)c2ccccc21	MIC90	broth dilution	163.99	4 µg/mL
CC(N1CCN(c2ccc(-n3ncnn3)cc2)C1=O)C(O)(Cn1cncn1)c1ccc(F)cc1F	MIC		TIMM1855	0.06 µg/mL
O=C(/C=C/c1ccccc1[N+](=O)[O-])OC1CCN(CC(O)(Cn2cncn2)c2ccc(F)cc2F)CC1	MIC80	broth dilution	BLS108	0.122 µM
CC[C@@H]([C@H](C)O)n1ncn(-c2ccc(N3CCN(c4ccc(OC[C@@H]5CO[C@@](Cn6cncn6)(c6ccc(F)cc6F)C5)cc4)CC3)cc2)c1=O	MIC		DUMC140.92	0.125 µg/mL
CCCCCCCCCCCCC(=O)OC1CCN(CC(O)(Cn2cncn2)c2ccc(F)cc2F)CC1	MIC80	broth dilution	BLS108	0.48 µM
Cc1ccc(CN(Cc2ccc(-c3ccccc3)cc2)n2ccnc2)cc1	MFC			200 µM
C[C@@H]1CC(=O)N(c2ccc(F)cc2)C1=O	MIC	broth dilution / turbidity	ATCC 32264	62.5 µg/mL
CCC(C)n1ncn(-c2ccc(N3CCN(c4ccc(OC[C@H]5CO[C@](Cn6cncn6)(c6ccc(Cl)cc6Cl)O5)cc4)CC3)cc2)c1=O	MIC		TIMM1855	0.13 µg/mL
Fc1ccccc1CN(Cc1ccc(-c2ccccc2)cc1)n1ccnc1	MFC			33 µM
CC1CC(=O)N(CCCCc2ccccc2)C1=O	MIC	broth dilution / turbidity	ATCC 32264	125 µg/mL
O=C(/C=C/c1cccc(F)c1)OC1CCN(CC(O)(Cn2cncn2)c2ccc(F)cc2F)CC1	MIC80	broth dilution	BLS108	0.129 µM
Cn1c2ccccc2c2c1cc1cc(Br)ccc1[n+]2CCCCCc1ccccc1	EC50		ATCC 90113	1.3 µg/mL

Repeating the first 6 entries:

structure,endpoint,method,strain or isolate,value
Clc1ccc(CN(Cc2ccc(-c3ccccc3)cc2)n2ccnc2)c(Cl)c1,MIC,,,2.5 µM
c1ccc2c(c1)cc1[nH]c3ccccc3c1[n+]2CCCCCC1CCCCC1,EC50,,ATCC 90113,0.3 µg/mL
COc1c(O)ccc2c(=O)c3cccc(O)c3oc12,MIC,,,>25 µg/mL
CC(N1CCN(c2ccc(-n3cncn3)cc2)C1=O)C(O)(Cn1cncn1)c1ccc(F)cc1F,MIC,,TIMM1740,0.06 µg/mL
CC1CC(=O)N(c2ccc(F)cc2F)C1=O,MIC,broth dilution / turbidity,ATCC 32264,125 µg/mL
CCCCCCCCCCCCC(C)(O)C1CC(=O)NC(CO)C(=O)N[C@H](C)C(=O)NC(CC(=O)O)C(=O)NC(CC(N)=O)C(=O)NC(CC(N)=O)C(=O)NC(CO)C(=O)NC([C@@H](C)O)C(=O)O1,MIC,,ATCC90112,32 µg/mL

Blank or dashed fields: not listed here. Neighbouring rows are from separate reports. A number after MIC or MFC names an inhibition level or a share of isolates. Two numbers with a dash give a range or band.